Results of single-concentration screens

Measurements from “University of Dundee, Small-Polar-MMV Screening Library” (2021), ChEMBL document CHEMBL3988442.

A: 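Whole-cell growth test on Mycobacterium tuberculosis, read after 3 days in glucose-containing 7H9 medium; the read-out is not stated. Concentration: 50 µM. The record gives no direction; compounds that gave an IC50 in retests scored well above the rest, so higher reads as more growth inhibition. Of about 69,000 compounds tested this way, about 760 (1.1%) reached 50% or more in at least one test.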
B: 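Growth of Mycobacterium tuberculosis over 4 days (cholesterol / DPPC medium with tyloxapol); the read-out is not stated. Compounds at 50 µM. Higher reads as more growth inhibition (inferred: compounds with an IC50 in retests scored well above the rest). Size under these conditions: about 69,000 compounds, about 370 of them at 50% or above in at least one test.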

Values are the deposited “Percent Effect”, in %.
The controls that fix the scale are not given in the record; negative values are as filed.
Many other results are left out here, so strong results are more common than in the screen.
Two or more numbers in one place are separate tests of the same structure; such repeats can differ widely.
A dash means the value is not listed here; it may have been measured.

Compound,A,B
Cc1cc(C)cc(CN2CCCC2c2noc(C)n2)c1 (configuration not stated),25.54%,-
Cc1nc(CN(C)C2CCCN(c3cccnn3)C2)no1 (configuration not stated),-28.27%,-
COc1ccc(NC(=O)Cn2nc(C)c(C(C)=O)c2C)cc1,78.1% & 69.7%,-
CC(C)(Oc1ccc(F)cc1)C(=O)NCc1ccco1,42.12%,-
N#Cc1ccc(OC2CCN(C(=O)c3ccc(Br)o3)CC2)nc1,6.087%,-
[H][C@@]12CCN(C[C@@H]1CC)[C@@H](CNCc1ccc(OC)cc1)C2,-7.376% & 7.121%,13.47%
CC(Nc1nc(-c2ccncc2)nc2c1CCNC2)c1ccccc1 (configuration not stated),41.66%,-
[H][C@]12CN(C(=O)c3ccno3)CCN1C(=O)N(Cc1ccc(F)cc1)C2,0.8848% & -1.038%,-
COc1ccc(-c2noc(C(CC(C)C)N3CCCCC3=O)n2)cn1 (configuration not stated),22.66%,4.518%
O=C(CCN1CCCC(CO)(CC2CC2)C1)NCc1cccc(Cl)c1 (configuration not stated),83.71% & 1.134%,-
CCNC(=O)N1CC(c2nc(Cc3ccccc3)no2)C1,6.984%,-3.115%
Cc1cccc(OCCCN2CCC(N(C)Cc3noc(C)n3)C2)c1 (configuration not stated),17.61%,-3.012%
CC(NCc1ccc(-c2ccc(F)cc2)o1)c1nnc2n1CCC2 (configuration not stated),-7.944%,-
Cc1cn2c(n1)C(CNCc1ccc(C)s1)CCC2 (configuration not stated),-22.43%,-
Fc1cccc(-c2nnn3c2COC(CNCc2cccs2)C3)c1.O=C(O)C(F)(F)F (configuration not stated),2.575% & 10.66%,-
COCc1ccc(C(=O)N2CCCN(c3ccc(F)cc3)CC2)s1,9.309%,24.41%
CC(NC(=O)Cn1cccnc1=O)c1ccc(C(F)(F)F)cc1 (configuration not stated),-,8.743% & -181%
Cc1nsc(C(=O)NCCc2ccccc2)n1,54.04%,54.94%
Cc1ccccc1CN1CCC(c2nn(CCN)c3nccnc23)C1 (configuration not stated),-,2.106%
Cc1ccc(NC2CCN(C(=O)Cc3cccc(F)c3)CC2)nn1,23.05%,-
OC1COCCN(Cc2cc(-c3ccccc3OC(F)(F)F)no2)C1 (configuration not stated),-37.51%,-
Cc1cccc(CN2C[C@@H](CN3CCCN(C)CC3)C[C@H](CO)C2)n1,-,73.32%
CO[C@H]1CCN(C(=O)c2cc(C)on2)C[C@@H]1Cc1ccccc1,9.553%,-
CC(C)c1nnc(CN(C)Cc2ccccc2-c2ccccc2)o1,47.52% & 57.22%,-
O=S(=O)(CCO)Cc1ccc(OC(F)F)cc1,-14.63%,11.96%
CSC1=Nc2c(cnn2-c2ccc(C)cc2)C2=NCCCN12,-,56.76%
CCN(C)CC1CCN(c2ncc(Br)cn2)C1 (configuration not stated),-7.373% & 2.071%,-5.971%
CC[C@@H](CO)Nc1cc(-c2cn[nH]c2)ncn1,-8.733%,-
O=C(Nc1cnn(COc2ccc(F)cc2Cl)c1)C1CC1,24.23%,-
Cc1ccc(-n2cc(CN3CCOCC3)c(-c3cccc(C)c3)n2)cc1,44.6%,-
COc1ccc(Oc2ncccc2C(F)(F)F)cc1CN1CCCC1,-22.17% & 19.49%,-
CCN1CCN(Cc2csc(C(C)C)n2)CC1,8.582%,-
Cc1cnn(CC2CN(Cc3nc4ccccc4s3)CCO2)c1 (configuration not stated),-,50.53%
CCc1[nH]c2c(CNc3nccc(N)n3)cc(C)cc2c1C,42.24%,20.01%
Cc1cc(NC(=O)C(C)C)n(-c2nc(C)c(C)c(=O)[nH]2)n1,83.18%,-
CCOCCCC(=O)Nc1cc(C(N)=O)ccc1N1CCCCC1,-16.83%,-
CCOCC(=O)NCCc1ccc(I)s1,10.21%,-
Cc1ccc(CN(CCCn2ccnc2)Cc2ccccc2O)s1.O=C(O)CC(O)(CC(=O)O)C(=O)O,2.427%,-27.39%
CCOc1ccccc1C(N)CC(C)C (configuration not stated),6.224% & -2.08%,4.347%
COc1ccc(N2CCC(N3CCOC(C(F)(F)F)C3)CC2)cc1 (configuration not stated),11.1%,-
N#Cc1cnc2c(F)cc(F)cc2c1NC1CCN(CC(N)=O)CC1,-33.28% & -3.89%,-
CC(C)c1nc(N2CCC(N3CCCC(O)C3)CC2)c2cnn(C)c2n1 (configuration not stated),19.4%,-
COc1cccc(CNC(CN2CCN(C)CC2)c2ccccc2)c1 (configuration not stated),15.95%,-
CSc1ncnc(NCc2ccco2)c1C#N,-3.598% & 15.27%,-6.124%
CC(C)C(Sc1nnnn1C1CC1)C(=O)NCc1ccccc1 (configuration not stated),10.92%,-
Cc1nc(N2CCCC(N3CCCC3)C2)c2cnn(C)c2n1 (configuration not stated),-1.477%,-
Cc1cc(SCC(N)=O)nc(-c2ccc(F)cc2)n1,7.479% & -1.321%,-
Cc1c(CN2CCc3[nH]cnc3C2C2CC2)[nH]c2ccc(F)cc12 (configuration not stated),18.13% & 42.44%,-
CC(=O)Nc1ccc(CNC2CCCSC2)cc1 (configuration not stated),2.392%,-15.08%
CCCc1nnc(NC2CCN(C3CCCC3)CC2)o1,20.57%,-
Cc1c(CN2CC[C@@H](N3CCC(O)CC3)[C@H](O)C2)[nH]c2ccc(Cl)cc12,40.64%,-
Cc1n[nH]c(C)c1CC(=O)NCCc1ccccc1,-16.17%,-
COc1cccc(F)c1-c1c[nH]c(C)n1,-38.46%,-
COc1ccc(C[C@H]2CN(C(=O)c3ccc(C)nc3)CC[C@@H]2OC)cc1.O=C(O)C(F)(F)F,16.34%,4.109%
Cc1ccc(CNC(=O)NCc2ccco2)s1,30.82%,-
Fc1ccc(NCc2ncc[nH]2)cc1Br,-,2.256% & 6.913%
CCOc1ccc(CN2CCN(C(=O)c3cc(C4CC4)[nH]n3)CC2)cc1,-4.047% & 0.594%,-
O=C(Cn1cc(I)cn1)N1CCCCCC1,-0.6731%,19.53%
COC(=O)c1sccc1S(=O)(=O)NCCc1ccoc1,-,7.363%
O=C(Cc1ccc(-n2cccn2)cc1)N1CCCC(n2cccn2)C1 (configuration not stated),-,73.22%
OCCN1CCC(F)(F)C2(CCN(c3cccnc3)C2)C1 (configuration not stated),-25.35%,2.149%
COC(=O)C(NC(=O)Nc1ccc(C(C)=O)cc1)C(C)C (configuration not stated),29.37%,7.141%
CC(C)Nc1nc(N2CCCC2)nc2c1CN(C(C)C)CC2,65.99%,-
CCc1ccc(-c2cc(C(F)(F)F)nc(N3CCC(N)CC3)n2)cc1,109.5% & 104.1%,112.8%
CC(=O)N1CCN(c2ccccc2CNc2cncc(C)c2)CC1,-,-2.141%
O=C(NCCc1ccccn1)C1(n2cnnn2)CCCCC1,-27.23%,-14.74%
CC(C)CN1CCCC2(CCN(c3ccccn3)C2)C1.O=C(O)C(F)(F)F (configuration not stated),-22.3%,-
O=C(NCc1c(F)cccc1F)C1CN(C(=O)c2cnccn2)C1,2.403% & -10.93%,-
COCCN1CCC(NCc2ccc(Cl)cc2)C1 (configuration not stated),20.83%,-3.096%
Cc1ccccc1N1CCN(c2ccncn2)C(C)C1 (configuration not stated),31.64% & 22.57%,-
CN(C)S(=O)(=O)c1ccc(CNc2ccc(Cl)cn2)cc1,5.756%,6.209%
CC(=O)Nc1nc(SCc2ccc3c(c2)OCO3)ns1,-5.052%,-
Cc1ccc(CN(CCCn2ccnc2)Cc2cc(F)ccc2F)s1.O=C(O)CC(O)(CC(=O)O)C(=O)O,59.69%,-
O=C(NCC1CCC2(CC1)OCCO2)c1ccncc1F,16.49% & -2.466%,6.077%
COCCN(C)CC1CCCN1S(=O)(=O)c1cc(C)oc1C (configuration not stated),8.025% & 2.309%,-
O=C(c1cccnc1)N1Cc2[nH]nc(COCCO)c2C1,0.4828% & -1.037%,-
CN(Cc1ccncc1)C(=O)NCc1cn(-c2ccccc2)nn1,-12.4%,-
COc1cccc(CNc2cccnc2-n2cccn2)c1OC,17.31% & 16.59%,14.19%
Cc1ccc(OCCSCCn2nc3ccccn3c2=O)cc1,-,70.2%
O=C(CCc1ccncc1)N1CCc2cc(Cl)cc(Cl)c2C1,51.04%,-
O=C(O)C(F)(F)F.O=C(O)C(F)(F)F.[H][C@@]12COC[C@H](C(=O)Nc3cccnc3)[C@]1([H])CN(C1CCCC1)C2,-,83.81% & -13.2%

The first 10 entries again:

Cc1cc(C)cc(CN2CCCC2c2noc(C)n2)c1 (configuration not stated) read A: 25.54%.
Cc1nc(CN(C)C2CCCN(c3cccnn3)C2)no1 (configuration not stated) read A: -28.27%.
COc1ccc(NC(=O)Cn2nc(C)c(C(C)=O)c2C)cc1 read A: 78.1% & 69.7%.
CC(C)(Oc1ccc(F)cc1)C(=O)NCc1ccco1 read A: 42.12%.
N#Cc1ccc(OC2CCN(C(=O)c3ccc(Br)o3)CC2)nc1 read A: 6.087%.
[H][C@@]12CCN(C[C@@H]1CC)[C@@H](CNCc1ccc(OC)cc1)C2 read A: -7.376% & 7.121%; B: 13.47%.
CC(Nc1nc(-c2ccncc2)nc2c1CCNC2)c1ccccc1 (configuration not stated) read A: 41.66%.
[H][C@]12CN(C(=O)c3ccno3)CCN1C(=O)N(Cc1ccc(F)cc1)C2 read A: 0.8848% & -1.038%.
COc1ccc(-c2noc(C(CC(C)C)N3CCCCC3=O)n2)cn1 (configuration not stated) read A: 22.66%; B: 4.518%.
O=C(CCN1CCCC(CO)(CC2CC2)C1)NCc1cccc(Cl)c1 (configuration not stated) read A: 83.71% & 1.134%.